How the values were obtained:
[1] = target: T1, recombinant toxic shock syndrome toxin-1 (TSST-1), mature protein with N-terminal His6-tag (Staphylococcus aureus), P06886
T1 chain: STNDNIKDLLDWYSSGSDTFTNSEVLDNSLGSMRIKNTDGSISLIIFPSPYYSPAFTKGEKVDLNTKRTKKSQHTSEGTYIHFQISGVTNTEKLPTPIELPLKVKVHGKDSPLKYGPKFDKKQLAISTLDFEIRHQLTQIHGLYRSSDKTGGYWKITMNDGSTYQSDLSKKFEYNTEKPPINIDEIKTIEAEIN

[2] = target: recombinant streptococcal mitogenic exotoxin Z (SMEZ), mature protein with N-terminal His6-tag (Streptococcus pyogenes)

With EKFDSVHSKYM (modifications not checked) [pB2-4, immobilized for Surface Plasmon Resonance] the Kd [1] was 9.8 µM, the kon [1] was 4080 M⁻¹ s⁻¹ and the koff [2] was 0.00293 s⁻¹. It also gave a kon [2] of 3020 M⁻¹ s⁻¹.

DSDSWTLR (modifications not checked) [pB2-6, immobilized for Surface Plasmon Resonance] was tested, and the Kd [2] was 1790 nM, the koff [2] was 0.00286 s⁻¹ and the kon [2] was 1590 M⁻¹ s⁻¹.
